Anti-infective test results gathered from many reports (values: NIAID ChemDB through PubChem).

Common to all: growth or infection tests; agent: HIV-1; cells: TZM-bl; endpoint: EC50

Blank or dashed fields: not listed here.

SMILES | strain | changes | method | conditions | result
Cc1ccc(-n2nc(-c3ccc(C)[nH]c3=O)cc2-c2ccccc2)cc1 | UG070 |  | luminescence |  | 102 µM
Clc1ccc2nc(/C=C/c3ccc(N4CCCC4)cc3)cc(Cl)c2c1 | UG070 |  | luminescence |  | 44.68 µM
O=C(CCc1ccc(NC(=O)Cc2cccs2)cc1)CCc1ccc(O)c(O)c1 | BaL |  | luciferase |  | 55.37 µM
CCC(=O)c1ccc(F)c([C@@H]2C[C@@H]2NC(=O)Nc2ccc(C#N)cn2)c1O | LAI | NNRTI-resistant (RT V90I) | β-galactosidase / luminescence |  | 0.00098 µM
O=C(CCc1ccc(NC(=O)c2ccccc2)cc1)CCc1ccc(O)c(O)c1 | BaL |  | luciferase |  | 22.84 µM
Cc1nnc(C(C)C)n1C1C[C@H]2CC[C@@H](C1)N2CC[C@H](NC(=O)C1CCC(F)(F)CC1)c1ccccc1 | pTHRO.c/2626 |  | luciferase |  | 0.084 µM
Cc1cc(Cl)c2cc(Cl)ccc2n1 | UG070 |  | luminescence |  | 101 µM
Cc1cc(C)cc(Cc2c(I)c(=O)[nH]c(=O)n2COCc2ccccc2)c1 | A17 | Y181C | p24 / ELISA |  | 0.022 µM
O=C1NC(=Nc2ccc(Cl)c(F)c2)S/C1=C\c1ccc(-c2ccc(C(=O)O)c(O)c2)o1 | NL4-3 |  | β-galactosidase |  | 1.8 µM
Cc1ccc(-c2ccc(NC(=O)N3CCC4(CCO4)CC3)cc2)cc1 | CNE8 |  | luminescence | pseudotyped | >30 µM
COc1cccc2ccc(-c3nnc(-c4cccc(F)c4)o3)nc12 | UG070 |  | luminescence |  | 70.71 µM
Clc1cc(/C=C/c2cc3ccccc3o2)nc2ccccc12 | UG070 |  | luminescence |  | 93.21 µM
COc1cccc2ccc(/C=C/C(=O)Nc3ccc(Cl)cc3)nc12 | VB59 |  | luminescence |  | 124 µM
O=C(CCC(=O)n1cnc2ccccc21)n1cnc2ccccc21 | VB59 |  | luciferase |  | 25.15 µM
Clc1cc(/C=C/c2ccc(OCc3ccccc3)cc2)nc2ccccc12 | VB59 |  | luminescence |  | 76.64 µM
Cc1ccc(-n2nc(-c3ccc(C)[nH]c3=O)cc2-c2ccccc2)c(C)c1 | UG070 |  | luminescence |  | 35.89 µM
O=C(Cn1ccc(=O)[nH]c1=O)Nc1ccc([N+](=O)[O-])cn1 | VB59 |  | luciferase |  | 2.68 µM
COc1ccc(-n2nc(-c3ccc(C)[nH]c3=O)cc2-c2ccccc2)cc1 | VB59 |  | luminescence |  | 114 µM
Cc1ccc(C(=O)Nc2ccc(CCC(=O)/C=C/c3ccc(O)c(O)c3)cc2)cc1 | BaL |  | luciferase |  | >50 µM
COc1cccc2ccc(C(CC(=O)Nc3ccccc3)Nc3ccccc3)nc12 | VB59 |  | luminescence |  | >130 µM
C#C[C@@]1(COP(=O)(O)OP(=O)(O)OP(=O)(O)O)C=C[C@H](n2cc(C)c(=O)[nH]c2=O)O1 | NL4-3 | P119S/M184V | luciferase |  | 3.6 µM
O=C1NC(=NCCc2ccc(F)cc2)S/C1=C\c1ccc(-c2ccc(C(=O)O)c(O)c2)o1 | AD8 |  | β-galactosidase |  | 0.6 µM
CC(=O)Oc1ccc(CCC(=O)CCc2ccc(NC(=O)c3ccccc3)cc2)cc1OC(C)=O | BaL |  | luciferase |  | 4.85 µM
CCc1ccc(CCN=C2NC(=O)/C(=C/c3ccc(-c4ccc(C(=O)O)c(O)c4)o3)S2)cc1 |  |  | β-galactosidase | pseudotyped | 5 µM
Cc1cn(CC(=O)Nc2ccc(Br)cn2)c(=O)[nH]c1=O | ADA5 |  | luciferase |  | 39.43 µM
COc1ccc(/C=C/c2cc(Cl)c3ccccc3n2)c(OC)c1 | VB59 |  | luminescence |  | 3.99 µM
Cc1ccc(-c2cc(-c3ccccc3)n(-c3ccccc3C)n2)c(=O)[nH]1 | VB59 |  | luminescence |  | >147 µM
O=C1NC(=NCc2cccc(F)c2)S/C1=C\c1ccc(-c2ccc(C(=O)O)c(O)c2)o1 | AD8 |  | β-galactosidase |  | 1.3 µM
Cc1cn([C@H]2C[C@H](N=[N+]=[N-])[C@@H](CO)O2)c(=O)[nH]c1=O | SF162 |  | luciferase |  | 0.00237 µM
Cc1ccc(-c2cc(-c3ccccc3)n(-c3ccc(C)c(C)c3)n2)c(=O)[nH]1 | VB59 |  | luminescence |  | >563 µM
C[C@@H]1CCO[C@H]2Cn3cc(C(=O)NCc4ccc(F)cc4F)c(=O)c(O)c3C(=O)N12 | NL4-3 | M184I-R263K | luciferase |  | 0.0042 µM
COc1ccnc2[nH]cc(C(=O)C(=O)N3CCN(C(=O)c4ccccc4)C[C@H]3C)c12 | 6535 |  | luciferase |  | <0.002 µM
Cc1ccc(-c2cc(-c3ccccc3)n(-c3ccc(C(C)C)cc3)n2)c(=O)[nH]1 | VB59 |  | luminescence |  | 15.34 µM
COc1cc(Br)ccc1/C=C/c1cc(Cl)c2ccccc2n1 | UG070 |  | luminescence |  | 35.23 µM
Cc1cc(C)cc(-n2nc(-c3ccc(C)[nH]c3=O)cc2-c2ccccc2)c1 | VB59 |  | luminescence |  | >563 µM
COc1ccc(N=Cc2cc3ccccc3nc2Nc2ccc(OC)cc2)cc1 | VB59 |  | luminescence |  | >130 µM
O=C(CCC(=O)n1cnc2c([N+](=O)[O-])cccc21)n1cnc2c([N+](=O)[O-])cccc21 | UG070 |  | luciferase |  | 29.41 µM
Fc1cccc(N=Cc2cc3ccccc3nc2Nc2cccc(F)c2)c1 | UG070 |  | luminescence |  | >130 µM
C[C@@H]1CCO[C@H]2Cn3cc(C(=O)NCc4ccc(F)cc4F)c(=O)c(O)c3C(=O)N12 |  |  | luciferase / luminescence |  | 0.0025 µM
C[C@H](Cn1cnc2c(N)ncnc21)OCP(=O)(O)O |  | HX/348 |  |  | 4.1 µM
COc1cccc2ccc(/C=C/C(=O)Nc3ccccc3F)nc12 | UG070 |  | luminescence |  | 2.57 µM
COc1cc(/C=C/c2cc(Cl)c3cc(Cl)ccc3n2)cc(OC)c1OC | UG070 |  | luminescence |  | 110 µM
COC[C@@H](c1ccc(C(F)(F)F)cc1)N1CCN(C2(C)CCN(C(=O)c3c(C)ncnc3C)CC2)C[C@@H]1C | S | M518V F519L |  |  | 0.0022 µM
CCc1ccccc1-n1nc(-c2ccc(C)[nH]c2=O)cc1-c1ccccc1 | UG070 |  | luminescence |  | >28.17 µM
O=C(CCC(=O)Nc1ccc([N+](=O)[O-])cn1)Nc1ccc([N+](=O)[O-])cn1 | UG070 |  | luciferase |  | 110.5 µM
Clc1ccc2nc(/C=C/c3ccc4c(c3)OCO4)cc(Cl)c2c1 | UG070 |  | luminescence |  | 102 µM
O=C(Cn1cnc2c([N+](=O)[O-])cccc21)Nc1ccccn1 | ADA5 |  | luciferase |  | 9.59 µM
COc1ccc(-c2nnc(-c3ccc4cccc(OC)c4n3)o2)cc1 | VB59 |  | luminescence |  | 45.09 µM

The first 5 rows once more:

SMILES	strain	changes	method	conditions	result
Cc1ccc(-n2nc(-c3ccc(C)[nH]c3=O)cc2-c2ccccc2)cc1	UG070		luminescence		102 µM
Clc1ccc2nc(/C=C/c3ccc(N4CCCC4)cc3)cc(Cl)c2c1	UG070		luminescence		44.68 µM
O=C(CCc1ccc(NC(=O)Cc2cccs2)cc1)CCc1ccc(O)c(O)c1	BaL		luciferase		55.37 µM
CCC(=O)c1ccc(F)c([C@@H]2C[C@@H]2NC(=O)Nc2ccc(C#N)cn2)c1O	LAI	NNRTI-resistant (RT V90I)	β-galactosidase / luminescence		0.00098 µM
O=C(CCc1ccc(NC(=O)c2ccccc2)cc1)CCc1ccc(O)c(O)c1	BaL		luciferase		22.84 µM

Lines come from different laboratories, so protocols vary. ECn is the concentration giving n% inhibition of infection, replication or growth.